From the NIST ThermoML archive (doi:10.1016/j.jct.2013.10.018)

Conditions: 101.33 kPa, Liquid; for speed of sound: Sing-around technique in a fixed-path interferometer; for mass density: Vibrating tube method

CCCCOP(=O)(OCCCC)OCCCC [tributyl phosphate]
Conditions	mass density [kg/m3]	speed of sound [m/s]
298.15 K	972.77	1265
303.15 K	968.46	1248
308.15 K	964.15	1231
313.15 K	959.84	1214
318.15 K	955.52	1198
323.15 K	951.2	1181
